Measured values from several laboratories, pooled; numbers as filed in NIAID ChemDB.

Shared fields: tests in culture; species: HIV-1; measure: inhibition

Rows are shuffled and stem from different studies. a–b is a range or a potency band. Inhibition is in % at the dose shown (toxicity tests: loss of growth or viability). An empty or dashed field is not shown.

smiles,mutations,cells,conditions,dose,strain,method,value
O=c1oc2cc(O)c(O)cc2c(O)c1-c1coc2c1c(=O)oc1cc(O)c(O)cc12,-,MT-4,-,0.1 µM,IIIB,MTT,0%
CCCCCCCCCCCCCC(=O)NCC(N)=O,-,H9,-,10 µg/mL,IIIB,RT activity,82%
CC1=C(C(=O)O)C(c2ccco2)NC(=O)N1,-,HEK293T,-,100 µM,-,p24 / ELISA,41.2%
CC(C)CCCCCCCCCCCN(C)OP(=O)(O)N(CC(N)=O)P(=O)(O)OC1C(OC[C@H]2O[C@@H](n3ccc(=O)[nH]c3=O)[C@H](O)[C@@H]2O)=C(CO)C(O)C1O,-,MOLT-4,-,1.5 µM,IIIB,cytopathic effect / MTT,96%
Cc1cn([C@H]2C[C@H](N=[N+]=[N-])[C@@H](COP(=O)(O)OCCO[C@H]3O[C@H](CO)[C@@H](O)[C@H](O)[C@@H]3O)O2)c(=O)[nH]c1=O,-,U-937,14 d,5 µM,LAV-Bru,RT activity,0%
CCN(CC)C(=S)S,-,H9,-,0.0000025 µg/mL,LAV,p24,25%
NCCS,-,C8166,-,200 µM,IIIB,cytopathic effect / MTT,100%
NCC(=O)N1CCC[C@H]1C(=O)NCC(N)=O,-,MT-2,-,200 µM,LAV,p24,68%
O=C1[C@@H](Cc2ccc(O)cc2)NC(=S)N1c1ccccc1,-,MT-4,-,10 µg/mL,-,cytopathic effect / XTT,19–34%
Clc1cc2nc(C3CCCO3)[nH]c2cc1Cl,-,CEM + CEM-SS,-,0.063 µM,RF,-,2.5%
O=P(O)(O)OP(=O)(O)OP(=O)(O)O,-,CEM,-,100 µg/mL,IIIB,cytopathic effect / MTT,2.4%
CCOC(=O)c1cn2c(c1O)C(=O)N(Cc1ccc(F)cc1)CC2,-,MT-4,-,95 µM,-,p24,≤20%
CC1=C(C(=O)O)C(c2ccc(N(C)C)cc2)NC(=O)N1,-,HEK293T,-,100 µM,-,p24 / ELISA,35.1%
O=C1NC(=S)N[C@@H]1Cc1ccccc1,-,MT-4,-,1 µg/mL,-,cytopathic effect / XTT,5%
N#Cc1cc(Cl)cc(Oc2c(Cl)ccc3c2cnn3Cc2[nH]nc3nc(N)ccc23)c1,-,MT-4,-,0.0041 µM,-,-,>95%
CCOC(=O)c1cn2c(c1O)C(=O)N(Cc1ccccc1)CC2,-,MT-4,-,95 µM,-,p24,≤20%
Nc1nc(=O)n([C@H]2CC[C@@H](CO)O2)cc1F,-,MT-2,-,1.2 µM,IIIB,cytopathic effect / MTT,52%
N#Cc1cccc(C2SCc3nc4cc5ccccc5cc4n32)c1,-,CEM + CEM-SS,-,200 µM,RF,-,8.54%
NCCSSCCN,-,PBL,-,10 µM,IIIB,p24,35%
CC1=C(C(=O)O)C(c2ccccc2O)NC(=O)N1,-,HEK293T,-,100 µM,-,p24 / ELISA,36.2%
Nc1ncnc2c1ncn2COCCOP(=O)(O)O[C@@H]1C[C@@H](COP(=O)(O)O[C@@H]2C[C@@H](COP(=O)(O)O[C@@H]3C[C@@H](CO)O[C@H]3n3cnc4c(NCc5ccccc5)ncnc43)O[C@H]2n2cnc3c(N)ncnc32)O[C@H]1n1cnc2c(N)ncnc21,-,SupT1 + Sup-T1,-,0.01 µM,-,syncytia,0%
CC1(c2nc3ccccc3[nH]2)CCC(C#N)C(C)(C)O1,-,CEM + CEM-SS,-,0.063 µM,RF,-,5.15%
Fc1cccc(Cl)c1C1SCc2nc3cc4ccccc4cc3n21,-,CEM + CEM-SS,-,200 µM,RF,-,0.41%
CN(C(=O)[C@H](Cc1ccccc1)NC(=O)CNC(=O)c1ccccc1)c1cccc(Br)c1,-,TZM-gfp,-,0.1 µM,NL4-3,GFP,39.18%
c1ccc2[nH]c(C3CCCCO3)nc2c1,-,CEM + CEM-SS,-,6.33 µM,RF,-,5.5%
Nc1ncnc2c1ncn2COCCOP(=O)([O-])O[C@@H]1[C@H](O)[C@@H](COP(=O)([O-])O[C@@H]2[C@H](O)[C@@H](COP(=O)([O-])O[C@@H]3[C@H](O)[C@@H](CO)O[C@H]3n3cnc4c(N)ncnc43)O[C@H]2n2cnc3c(N)ncnc32)O[C@H]1n1cnc2c(N)ncnc21,-,SupT1 + Sup-T1,-,300 µM,-,syncytia,99%
C[C@@H](O)[C@H](NC(=O)[C@@H](N)CC(N)=O)C(=O)N[C@@H](CO)C(=O)N[C@@H](Cc1ccc(O)cc1)C(=O)NCC(=O)O,-,A3.01,-,0.001 µM,LAV,RT activity,82.6%
COc1ccnc2[nH]cc(C(=O)C(=O)N3CCN(C(=O)c4ccccc4)C[C@H]3C)c12,-,HEK293T,-,100 µM,-,p24 / ELISA,100%
O=C(NCCc1ccccc1)Nc1nc(C(F)(F)F)cs1,-,MT-4,-,10 µg/mL,-,RT activity,96%
COC(=O)C1=C(C)N(c2ccc(C(=O)O)cc2)C(C)=C(C(=O)OC)C1c1ccc([N+](=O)[O-])o1,-,HEK293T + MT-2,-,100 µM,NL4-3,p24 / ELISA,30%
Cc1nc(NC(=O)NCCc2ccccc2)sc1C,-,MT-4,-,100 µg/mL,-,cytopathic effect / XTT,99–100%
N#Cc1cc(Cl)cc(Oc2cc(OCc3[nH]nc4ncccc34)ccc2Cl)c1,-,MT-4,50% human serum,0.052 µM,-,-,>95%
CCCCN1C(=O)[C@@H](Cc2ccccc2)NC1=S,-,MT-4,-,1 µg/mL,-,RT activity,11%
Nc1ccn([C@@H]2CC[C@H](CO)O2)c(=O)n1,-,MT-2,-,0.4 µM,IIIB,cytopathic effect / MTT,9%
CN(C(=O)[C@H](Cc1ccccc1)NC(=O)CC1NC(=O)NC1=O)c1ccc(Cl)cc1,-,TZM-gfp,-,0.1 µM,NL4-3,GFP,17.7%
O=C1[C@@H](Cc2ccccc2)NC(=S)N1c1ccccc1,-,MT-4,-,10 µg/mL,-,cytopathic effect / XTT,12–16%
N#Cc1cc(Cl)cc(Oc2c(Cl)ccc3c2nnn3Cc2[nH]nc3nc(N)ccc23)c1,K103N,MT-4,-,0.0058 µM,-,-,>95%
CC(=O)CCC(=O)NCCCOCCOCCCNC(=O)CNC(=O)[C@H](CS)NC(=O)[C@@H](NC(=O)[C@@H](NC(=O)[C@H](CO)NC(=O)[C@@H](N)CS)C(C)C)[C@@H](C)O,-,PBMC(PHA STIM.) + PBMC,-,0.66 µM,IIIB,p24,66%
CC(C)[C@H](NC(=O)[C@H](Cc1ccccc1)C[C@H](O)[C@H](Cc1ccccc1)NC(=O)OC(C)(C)C)C(=O)N[C@@H](Cc1ccccc1)C(=O)N1CCOCC1,-,MT-2,-,0.1 µM,Z-84,RT activity,90%
O=C(NCCc1ccccc1)Nc1nc2ccc(Cl)cc2s1,-,MT-4,-,10 µg/mL,-,cytopathic effect / XTT,63–69%
C=C1C[C@@H](CO)O[C@H]1n1ccc(=O)[nH]c1=O,-,H9,-,100 µM,-,-,0%
CN1CCn2cc(C(=O)NCc3ccc(F)cc3)c(O)c2C1=O,-,MT-4,-,95 µM,-,p24,≤20%
CN(C(=O)[C@H](Cc1ccccc1)NC(=O)CNC(=O)c1ccccc1)c1cccc(F)c1,-,TZM-gfp,-,0.1 µM,NL4-3,GFP,3.19%
CCOC(=O)c1cn2c(c1O)C(=O)N(Cc1cccc(Cl)c1)CC2,-,MT-4,-,95 µM,-,p24,≤20%
O=C(O)CCC(CCC(=O)O)(CCC(=O)O)NC(=O)CCC(CCC(=O)NC(CCC(=O)O)(CCC(=O)O)CCC(=O)O)(CCC(=O)NC(CCC(=O)O)(CCC(=O)O)CCC(=O)O)NC(=O)CCCOC(=O)C1(C(=O)OCCCC(=O)NC(CCC(=O)NC(CCC(=O)O)(CCC(=O)O)CCC(=O)O)(CCC(=O)NC(CCC(=O)O)(CCC(=O)O)CCC(=O)O)CCC(=O)NC(CCC(=O)O)(CCC(=O)O)CCC(=O)O)C2c3cc4c5c6c3-c3c(cc7c8c3C6C3c6c-5c(cc5ccc9cc(c-8c3c9c65)C7)C4)C21,-,PBMC,-,1.8 µM,LAI,cytopathic effect,90%
CCCCCCCCCCCCCCCCOP(=O)(OCCO[C@@H]1O[C@H](CO)[C@@H](O)[C@H](O)[C@@H]1O)OC[C@H]1O[C@@H](n2cc(C)c(=O)[nH]c2=O)C[C@@H]1N=[N+]=[N-],-,CEM,7 d,1 µM,LAV-Bru,RT activity,71%
CC(C)[C@H](NC(=O)[C@H](CO)NC(=O)[C@H](CS)NC(=O)CCC(=O)NCCCOCCOCCCN)C(=O)N[C@H](C(=O)N[C@@H](CS)C(=O)NCC(=O)O)[C@@H](C)O,-,PBMC(PHA STIM.) + PBMC,-,1.32 µM,BaL,p24,50%
COC(=O)C1=C(C)N(c2ccc(C(=O)O)cc2)C(C)=C(C(=O)OC)C1c1ccco1,-,HEK293T + MT-2,-,100 µM,NL4-3,p24 / ELISA,84%
CCN(CC)CCCC(C)Nc1ccnc2cc(Cl)ccc12,-,H9,-,100 µM,-,RT activity,71.05%
COC(=O)C1=C(C)N(c2ccc(C(=O)O)cc2)C(C)=C(C(=O)OC)C1c1cccs1,-,HEK293T + MT-2,-,100 µM,NL4-3,p24 / ELISA,76.42%
NS(=O)(=O)c1ccc(NC(=O)c2ccccc2SSc2ccccc2C(=O)Nc2ccc(S(N)(=O)=O)cc2)cc1,-,HeLa P4 + HeLa,-,1 µM,NL4-3,virus yield,75%
C[C@@H](O)[C@H](NC(=O)[C@H](Cc1ccc(O)cc1)NC(=O)[C@H](CC(N)=O)NC(=O)[C@@H](NC(=O)[C@@H](N)CO)[C@@H](C)O)C(=O)O,-,A3.01,-,0.001 µM,LAV,RT activity,85.7%
CNC(=O)c1cn2c(c1O)C(=O)N(Cc1ccc(F)c(F)c1)CC2,-,MT-4,-,95 µM,-,p24,≤20%
O=C(NCCc1ccccc1)Nc1nc2ccccc2s1,-,MT-4,-,0.1 µg/mL,-,RT activity,1%
CC1(C)[C@@H](O[C@H]2O[C@H](C(=O)O)[C@@H](O)[C@H](O)[C@H]2O[C@@H]2O[C@H](C(=O)O)[C@@H](O)[C@H](O)[C@H]2O)CC[C@]2(C)[C@H]3C(=O)C=C4[C@@H]5C[C@@](C)(C(=O)O)CC[C@]5(C)CC[C@@]4(C)[C@]3(C)CC[C@@H]12,-,MOLT-4,9 d,1200 µM,IIIB,virus yield,93.5%
Nc1ccn([C@H]2CC[C@@H](CO)O2)c(=O)n1,-,MT-2,-,0.5 µM,LAV,cytopathic effect / trypan blue,60%

Repeating the final 3 entries:

smiles | mutations | cells | conditions | dose | strain | method | value
O=C(NCCc1ccccc1)Nc1nc2ccccc2s1 | - | MT-4 | - | 0.1 µg/mL | - | RT activity | 1%
CC1(C)[C@@H](O[C@H]2O[C@H](C(=O)O)[C@@H](O)[C@H](O)[C@H]2O[C@@H]2O[C@H](C(=O)O)[C@@H](O)[C@H](O)[C@H]2O)CC[C@]2(C)[C@H]3C(=O)C=C4[C@@H]5C[C@@](C)(C(=O)O)CC[C@]5(C)CC[C@@]4(C)[C@]3(C)CC[C@@H]12 | - | MOLT-4 | 9 d | 1200 µM | IIIB | virus yield | 93.5%
Nc1ccn([C@H]2CC[C@@H](CO)O2)c(=O)n1 | - | MT-2 | - | 0.5 µM | LAV | cytopathic effect / trypan blue | 60%